# For at least one entry, the source does not settle the construct or the ends of the probe.
# Tests used:
# [1] = test system: Stl repressor + Drosophila melanogaster dUTPase; experiment: EMSA; settings: D. melanogaster dUTPase added to DNA-Stl, no dissociation, new higher band, putative ternary complex; recombinant protein; label: none (GelRed stain)
# [2] = target: Stl repressor (UniProt Q9F0J8); experiment: EMSA; settings: no dUTPase; recombinant protein; protein details: GST tag removed by thrombin on column (pGEX-4T-1); label: none (GelRed stain)
sequence,measurement,setting,value
TCCTCGAACAAATTATCTCACATCGAGATATTTATTTCAACAT (double strand) [Inter-R 43-mer],binding result,[1],binds
same,binding result,[2],binds
